Laboratory results taken from publication PMC9784969, “SARS-CoV-2 Inhibitors Identified by Phenotypic Analysis of a Collection of Viral RNA-Binding Molecules” (Pharmaceuticals, 2022).
Several values for one entry are separate records, joined by “and”; a condition that tells them apart may be missing. Equal entries are not always repeated. Where two headings read alike, the source gives them in different places.

Tests used:
SARS-CoV-2 USA-WA1/2020 [1] = type: cell-based; conditions: Vero E6, SI = CC50/EC50
SARS-CoV-2 USA-WA1/2020 [2] = type: cell-based; conditions: 293T-ACE2, SI = CC50/EC50

## CN(C)CCOc1cc2c(c3ccccc13)-c1ccccc1C2=O [1a]
SARS-CoV-2 USA-WA1/2020 [1]
  SARS-CoV-2 SI: <0.06

## OC(CNCC1CCCO1)Cn1c2ccc(Br)cc2c2cc(Br)ccc21 (centres unmarked) [1b]
SARS-CoV-2 USA-WA1/2020 [1]
  SARS-CoV-2 SI: 1.48

## NCCCc1cn(C(c2ccccc2)(c2ccccc2)c2ccccc2)cn1 [trim]
SARS-CoV-2 USA-WA1/2020 [1]
  SARS-CoV-2 SI: > 25.7
SARS-CoV-2 USA-WA1/2020 [2]
  SARS-CoV-2 SI: 71.2

## CC(C)CCN1CCC(CNc2nc3ccccc3c(=O)[nH]2)CC1 [qz2]
SARS-CoV-2 USA-WA1/2020 [1]
  SARS-CoV-2 SI: > 2.7 and >2.66
SARS-CoV-2 USA-WA1/2020 [2]
  SARS-CoV-2 SI: > 55

## CCC(=C(c1ccccc1)c1ccc(OCCN(C)C)cc1)c1ccc(O)cc1 [4'OH-tamoxifen]
SARS-CoV-2 USA-WA1/2020 [1]
  SARS-CoV-2 SI: 3.65

## CCN(CC)CCOc1ccc(C(O)(Cc2ccc(Cl)cc2)c2ccc(C)cc2)cc1 (centres unmarked) [Triparanol, reference compound]
SARS-CoV-2 USA-WA1/2020 [1]
  SARS-CoV-2 SI: >24.7
SARS-CoV-2 USA-WA1/2020 [1]; listed as triparanol
  SARS-CoV-2 SI: > 24.7

## CCN(CC)CCCC(C)Nc1ccc2ccccc2n1 (centres unmarked) [qn1]
SARS-CoV-2 USA-WA1/2020 [1]
  SARS-CoV-2 SI: >2.1

## CN(C)CCOc1ccc(C(=C(CCO)c2ccccc2)c2ccccc2)cc1 [βOH-tamoxifen]
SARS-CoV-2 USA-WA1/2020 [1]
  SARS-CoV-2 SI: 4.11

## O=C1c2c(O)ccc(O)c2C(=O)c2c(NCCNCCO)ccc(NCCNCCO)c21 [Mitoxantrone, reference compound]
SARS-CoV-2 USA-WA1/2020 [1]
  SARS-CoV-2 SI: 0.34

## CC1CN(C(c2ccccc2)(c2ccccc2)c2ccccc2)CCN1 (centres unmarked) [Trityl-piperazine]
SARS-CoV-2 USA-WA1/2020 [1]
  SARS-CoV-2 SI: 3.45
SARS-CoV-2 USA-WA1/2020 [2]
  SARS-CoV-2 SI: >13.6
SARS-CoV-2 USA-WA1/2020 [2]; listed as trityl-piperazine
  SARS-CoV-2 SI: > 13.6

## Fc1nc(N2CCNCC2)c(F)c(Sc2ccc(Cl)cc2)c1F [2a]
SARS-CoV-2 USA-WA1/2020 [1]
  SARS-CoV-2 SI: > 3.21
SARS-CoV-2 USA-WA1/2020 [2]
  SARS-CoV-2 SI: 8.44

## CCC(CC)COC(=O)[C@H](C)N[P@](=O)(OC[C@H]1O[C@@](C#N)(c2ccc3c(N)ncnn23)[C@H](O)[C@@H]1O)Oc1ccccc1 [Remdesivir, reference compound]
SARS-CoV-2 USA-WA1/2020 [1]
  SARS-CoV-2 SI: >46.7
SARS-CoV-2 USA-WA1/2020 [1]; listed as remdesivir
  SARS-CoV-2 SI: > 46.7
SARS-CoV-2 USA-WA1/2020 [2]
  SARS-CoV-2 SI: >192
SARS-CoV-2 USA-WA1/2020 [2]; listed as remdesivir
  SARS-CoV-2 SI: > 192

## Homochlorcyclizine [reference compound]
SARS-CoV-2 USA-WA1/2020 [1]
  SARS-CoV-2 SI: >5.57
SARS-CoV-2 USA-WA1/2020 [1]; listed as homochlorcyclizine
  SARS-CoV-2 SI: > 5.57
